Anti-infective test results gathered from many reports (values: NIAID ChemDB through PubChem).

Common to all: tests on isolated targets; species: Hepatitis C virus; target: Nonstructural protein 5B; read-out: IC50

ICn is the concentration giving n% inhibition. Lines come from different laboratories, so protocols vary. Two numbers with a dash give a range or band. An empty or dashed field is not shown.

compound	strain	result
Cc1cc2c(cc1C(=O)N[C@@H](Cc1c[nH]c3ccc(OCC(=O)O)cc13)C(=O)O)nc(-c1ccoc1)n2C1CCCCC1		0.019 µM
O=C(Nc1ccc2[nH]ncc2c1)c1cc(C2CCNCCN2)c(F)cc1F		1–10 µg/mL
O=C(O)c1ccc2c(C3CCCCC3)c(-c3ccoc3)[nH]c2c1		1.4 µM
Nc1ncnc2c1ncn2[C@@H]1O[C@H](COC(=O)c2ccc(S(=O)(=O)F)cc2)[C@@H](O)[C@H]1O		>1000 µM
Cc1c(-c2ccoc2)n(C2CCCCC2)c2ccc(C(=O)O)cc12		0.88 µM
O=C1CC(=O)OC(CCc2ccc(F)c(Cl)c2)(C2CCCC2)C1		1–10 µM
NC(=O)c1ncn([C@@H]2O[C@H](COC(=O)c3ccc(S(=O)(=O)F)cc3)[C@@H](O)[C@H]2O)n1		>1000 µM
CC(=O)c1ccc(CCC2(C3CCCC3)CC(O)=CC(=O)O2)cc1C		1–10 µM
Nc1ncnc2c1ccn2[C@@H]1O[C@H](CO)[C@@H](O)[C@H]1O	GT1b	0.3 µM
O=C(Nc1ccc2[nH]ncc2c1)c1cc(NCc2ccccn2)c(F)cc1F		1 µg/mL
O=C(O)c1ccc2c(c1)nc(-c1ccoc1)n2C1CCCCC1		1.6 µM
O=C(Nc1ccc2cn[nH]c2c1)c1cc(N2CCNCC2)c(F)cc1F		>10 µg/mL
Cc1nc(N)c2ncn([C@@H]3O[C@H](COC(=O)c4ccc(S(=O)(=O)F)cc4)[C@@H](O)[C@H]3O)c2n1		>1000 µM
CN1CCN(c2cc(C(=O)Nc3ccc4cn[nH]c4c3)c(F)cc2F)CC1		>10 µg/mL
Cn1c(COc2ccc(CCC3(C4CCCC4)CC(O)=CC(=O)O3)cc2)nc2ccccc21		10–50 µM
O=C(Nc1ccc2cn[nH]c2c1)c1cc(N2CCN(CCO)CC2)c(F)cc1F		>10 µg/mL
CCOC(=O)c1c(NC(=O)NS(=O)(=O)c2ccc(C#N)cc2)sc2c1CCC(C)(C)C2		0.4 µM
O=C(Nc1ccc2[nH]ncc2c1)c1cc(N2CCC(O)CC2)c(F)cc1F		0.1–1 µg/mL
CN1C(=O)[C@]23CC4=CC=C[C@H](O)[C@H]4N2C(=O)[C@@]1(CO)SS3		230 µM